Assay results from the supplement of paper PMC12637763.
The other results are listed elsewhere or left out. Env chains of viruses from a treatment-interruption trial, translated from the printed DNA. IC50 / IC80 of two broadly neutralizing antibodies; lower = more sensitive virus; >50 µg/ml means not reached and <0.001 µg/ml is below the lowest dose. No active / inactive call.

Assays:
[1] = target: antibody 10-1074; experiment: neutralization IC50; higher = virus less sensitive to the antibody
Method: (§1)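 Pseudovirus bearing the Env chain mixed with antibody, from 50 µg/ml in fivefold dilutions, on TZM-bl reporter cells, in duplicate.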

[2] = target: antibody 3BNC117; experiment: as above
Method: as §1

[3] = target: antibody 10-1074; experiment: neutralization IC80; higher = virus less sensitive to the antibody
Method: as §1

[4] = target: antibody 3BNC117; experiment: as above
Method: as §1

| Binder | neutralization IC50 [1] [µg/mL] | neutralization IC50 [2] [µg/mL] | neutralization IC80 [3] [µg/mL] | neutralization IC80 [4] [µg/mL] |
| --- | --- | --- | --- | --- |
| HIV-1 Env, rebound clone, placebo arm (protein) MRAKGTRKNCQHLWKWGTMLLGMLMICSAAGNLWVTVYYGVPVWKAANTTLFCASDAKAYDTEVHNVWATHACVPTDPNPQEVPLENVTENFNMWKNNMAEQMHEDIISLWDQSLKPCVKLTPLCVTLNCTDYTKNATNQNNTSGNETVGKEIEMKNCSFNITTDMRDKFQKEYALFYKDDIVSIDNNVSYRLISCNTSVLTQACPKISFEPIPIHYCAPAGFAILKCNDKKFNGTGPCKNVSTVQCTHGIRPVVSTQLLLNGSLAEGGIVIRSENITNNAKTIIVQLNETVEINCTRPNNNTRKSIHIGPGRAFYATGDIIGDIRQAHCNISGTKWNNTLKKIVGQLRAQFGTQFKNKTITFNHSSGGDPEIVMHMFNCGGEFFYCNTTQLFNSTWPVNGSMAENSTNNGTITLPCRIKQIVNMWQEVGKAMYAPPIKGQIKCTSNITGLILTRDGGTETNTTTEIFRPGGGNMMDNWRSELYKYKVVKIEPLGVAPTKAKRRVVQREKRAVTFGALFLGFLGAAGSTMGAASMTLTVQARLLLSGIVQQQNNLLRAIEAQQHMLQLTVWGIKQLQARVLAVERYLKDQQLLGIWGCSGKLICTTAVPWNASWSNKTQDEIWGNMTWMQWEKEISNYTGLIYNLIEKSQTQQEQNEQELLALDQWASLWNWFDISKWLWYIKIFIMIVGGLIGLRIVFTVLNIVNRVRQGYSPLSFQTLLPNPRGPDRPGGIEEEGGERDRDSSSRLADGFLAIFWVDLRSLFLFSYHHLRDLLLIAARIVELLGRRGWELLKYWWNLLRYWSQELKNSAISLLNATAIAVAEGTDRVIEVLQRIWRGILHIPTRIRQGLERLLL | 0.008 | 0.01 | 0.033 | 0.032 |
| HIV-1 Env, rebound clone, placebo arm (protein) MRAKGTRKNCQHLWKWGTMLLGMLMICSAAGNLWVTVYYGVPVWKAANTTLFCASDAKAYDTEVHNVWATHACVPTDPNPQEVPLENVTENFNMWKNNMAEQMHEDIISLWDQSLKPCVKLTPLCVTLNCTDYTKNATNQNNTSGNETVGKEIEMKNCSFNITTDMRDKFQKEYALFYKDDIVSIDNNVSYRLISCNTSVLTQACPKISFEPIPIHYCAPAGFAILKCNDKKFNGTGPCKNVSTVQCTHGIRPVVSTQLLLNGSLAEGGIVIRSENITNNAKTIIVQLNETVEINCTRPNNNTRKSIHIGPGRAFYATGDIIGDIRQAHCNISGTKWNNTLKKIVGQLRAQFGTQFKNKTITFNHSSGGDPEIVMHMFNCGGEFFYCNTTQLFNSTWPANGSMAENSTNNGTITLPCRIKQIVNMWQEVGKAMYAPPIKGQIKCTSNITGLILTRDGGTETNTTTEIFRPGGGNMMDNWRSELYKYKVVKIEPLGVAPTKAKRRVVQREKRAVTFGALFLGFLGAAGSTMGAASMTLTVQARLLLSGIVQQQNNLLRAIEAQQHMLQLTVWGIKQLQARVLAVERYLKDQQLLGIWGCSGKLICTTAVPWNASWSNKTQDEIWGNMTWMQWEKEISNYTGLIYNLIEKSQTQQEQNEQELLALDQWASLWNWFDISKWLWYIKIFIMIVGGLIGLRIVFTVLNIVNRVRQGYSPLSFQTLLPNPRGPDRPGGIEEEGGERDRDSSSRLADGLLAIFWVDLRSLFLFSYHHLRDLLLIAARIVELLGRRGWELLKYWWNLLRYWSQELKNSAISLLNATAIAVAEGTDRVIEVLQRIWRGILHIPTRIRQGLERLLL | 0.006 | 0.014 | 0.026 | 0.035 |
| HIV-1 Env, rebound clone, placebo arm (protein) MRAKGTRKNCQHLWKWGTMLLGMLMICSAAGNLWVTVYYGVPVWKAANTTLFCASDAKAYDTEVHNVWATHACVPTDPNPQEVPLENVTENFNMWKNNMAEQMHEDIISLWDQSLKPCVKLTPLCVTLNCTDYTKNATNQNNTSGNETVGKEIEMKNCSFNITTDMRDKFQKEYALFYKDDIVSIDNNVSYRLISCNTSVLTQACPKISFEPIPIHYCAPAGFAILKCNDKKFNGTGPCKNVSTVQCTHGIRPVVSTQLLLNGSLAEGGIVIRSENITNNAKTIIVQLNETVEINCTRPNNNTRKSIHIGPGRAFYATGDIIGDIRQAHCNISGTKWNNTLKKTVGQLRAQFGTQFKNKTITFNHSSGGDPEIVMHMFNCGGEFFYCNTTQLFNSTWPANGSMAENSTNNGTITLPCRIKQIVNMWQEVGKAMYAPPIKGQIKCTSNITGLILTRDGGTETNTTTEIFRPGGGNMMDNWRSELYKYKVVKIEPLGVAPTKAKRRVVQREKRAVTFGALFLGFLGAAGSTMGAASMTLTVQARLLLSGIVQQQNNLLRAIEAQQHMLQLTVWGIKQLQARVLAVERYLKDQQLLGIWGCSGKLICTTAVPWNASWSNKTQDEIWGNMTWMQWEKEISNYTGLIYNLIEKSQTQQEQNEQELLALDQWASLWNWFDISKWLWYIKIFIMIVGGLIGLRIVFTVLNIVNRVRQGYSPLSFQTLLPNPRGPDRPGGIEEEGGERDRDSSSRLADGFLAIFWVDLRSLFLFSYHHLRDLLLIAARIVELLGRRGWELLKYWWNLLRYWSQELKNSAISLLNATAIAVAEGTDRVIEVLQRIWRGILHIPTRIRQGLERLLL | 0.005 | 0.016 | 0.026 | 0.045 |
| HIV-1 Env, rebound clone, placebo arm (protein) MRAKGTRKNCQHLWKWGTMLLGMLMICSAAGNLWVTVYYGVPVWKAANTTLFCASDAKAYDTEVHNVWATHACVPTDPNPQEVPLENVTENFNMWKNNMAEQMHEDIISLWDQSLKPCVKLTPLCVTLNCTDYTKNATNQNNTSGNETVGKEIEMKNCSFNITTDMRDKFQKEYALFYKDDIVSIDNNVSYRLISCNTSVLTQACPKISFEPIPIHYCAPAGFAILKCNDKKFNGTGPCKNVSTVQCTHGIRPVVSTQLLLNGSLAEGGIVIRSENITNNAKTIIVQLNETVEINCTRPNNNTRKSIHIGPGRAFYATGDIIGDIRQAHCNISGTKWNNTLKKIVGQLRAQFGTQFKNKTITFNHSSGGDPEIVMHMFNCGGEFFYCNTTQLFNSTWPANGSMAENSTNNGTITLPCRIKQIVNMWQEVGKAMYAPPIKGQIKCTSNITGLILTRDGGTETNTTTEIFRPGGGNMIDNWRSKLYKYKVVKIEPLGVAPTKAKRRVVQREKRAVTFGALFLGFLGAAGSTMGAASMTLTVQARLLLSGIVQQQNNLLRAIEAQQHMLQLTVWGIKQLQARVLAVERYLKDQQLLGIWGCSGKLICTTAVPWNASWSNKTQDEIWGNMTWMQWEKEISNYTGLIYNLIEKSQTQQEQNEQELLALDQWASLWNWFDISKWLWYIKIFIMIVGGLIGLRIVFTVLNIVNRVRQGYSPLSFQTLLPNPRGPDRPGGIEEEGGERDRDSSSRLADGFLAIFWVDLRSLFLFSYHHLRDLLLIAARIVELLGRRGWELLKYWWNLLRYWSQELKNSAISLLNATAIAVAEGTDRVIEVLQRIWRGILHIPTRIRQGLERLLL | 0.007 | 0.014 | 0.032 | 0.048 |
| HIV-1 Env, rebound clone, placebo arm (protein) MRAKGTRKNCQHLWKWGTMLLGMLMICSAAGNLWVTVYYGVPVWKAANTTLFCASDAKAYDTEVHNVWATHACVPTDPNPQEVPLENVTENFNMWKNNMAEQMHEDIISLWDQSLKPCVKLTPLCVTLNCTDYTKNATNQNNTSGNETVGKEIEMKNCSFNITTDMRDKFQKEYALFYKDDIVSIDNNVSYRLISCNTSVLTQACPKISFEPIPIHYCAPAGFAILKCNDKKFNGTGPCKNVSTVQCTHGIRPVVSTQLLLNGSLAEGGIVIRSENITNNAKTIIVQLNETVEINCTRPNNNTRKSIHIGPGRAFYATGDIIGDIRQAHCNISGTKWNNTLKKIVGQLRAQFGTQFKNKTITFNHSSGGDPEIVMHMFNCGGEFFYCNTTQLFNSTWPANESMAENSTNNGTITLPCRIKQIVNMWQEVGKAMYAPPIKGQIKCTSNITGLILTRDGGTETNTTTEIFRPGGGNMMDNWRSELYKYKVVKIEPLGVAPTKAKRRVVQREKRAVTFGALFLGFLGAAGSTMGAASMTLTVQARLLLSGIVQQQNNLLRAIEAQQHMLQLTVWGIKQLQARVLAVERYLKDQQLLGIWGCSGKLICTTAVPWNASWSNKTQDEIWGNMTWMQWEKEISNYTGLIYNLIEKSQTQQEQNEQELLALDQWASLWNWFDISKWLWYIKIFIMIVGGLIGLRIVFTVLNIVNRVRQGYSPLSFQTLLPNPRGPDRPGGIEEEGGERDRDSSSRLADGFLAIFWVDLRSLFLFSYHHLRDLLLIAARIVELLGRRGWELLKYWWNLLRYWSQELKNSAISLLNATAIAVAEGTDRVIEVLQRIWRGILHIPTRIRQGLERLLL | 0.005 | 0.012 | 0.028 | 0.044 |
| HIV-1 Env, rebound clone, placebo arm (protein) MRAKGTRKNCQHLWKWGTMLLGMLMICSAAGNLWVTVYYGVPVWKAANTTLFCASDAKAYDTEVHNVWATHACVPTDPNPQEVPLENVTENFNMWKNNMAEQMHEDIISLWDQSLKPCVKLTPLCVTLNCTDYTKNATNQNNTSGNETVGKEIEMKNCSFNITTDMRDKFQKEYALFYKDDIVSIDNNVSYRLISCNTSVLTQACPKISFEPIPIHYCAPAGFAILKCNDKKFNGTGPCKNVSTVQCTHGIRPVVSTQLLLNGSLAEGGIVIRSENITNNAKTIIVQLNETVKINCTRPNNNTRKSIHIGPGRAFYATGDIIGDIRQAHCNISGTKWNNTLKKIVGQLRAQFGTQFKNKTITFNHSSGGDPEIVMHMFNCGGEFFYCNTTQLFNSTWPANGSMAENSTNNGTITLPCRIKQIVNMWQEVGKAMYAPPIKGQIKCTSNITGLILTRDGGTETNTTTEIFRPGGGNMMDNWRSELYKYKVVKIEPLGVAPTKAKRRVVQREKRAVTFGALFLGFLGAAGSTMGAASMTLTVQARLLLSGIVQQQNNLLRAIEAQQHMLQLTVWGIKQLQARVLAVERYLKDQQLLGIWGCSGKLICTTAVPWNASWSNKTQDEIWGNMTWMQWEKEISNYTGLIYNLIEKSQTQQEQNEQELLALDQWASLWNWFDISKWLWYIKIFIMIVGGLIGLRIVFTVLNIVNRVRQGYSPLSFQTLLPNPRGPDRPGGIEEEGGERDRDSSSRLADGFLAIFWVDLRSLFLFSYHHLRDLLLIAARIVELLGRRGWELLKYWWNLLRYWSQELKNSAISLLNATAIAVAEGTDRVIEVLQRIWRGILHIPTRIRQGLERLLL | 0.009 | 0.019 | 0.027 | 0.051 |
